Compound potency records, mixed from different reports. Data source: NIAID ChemDB in PubChem.

Common to all: enzyme or target tests; agent: Hepatitis C virus; target: Nonstructural protein 5B; measure: inhibition

Inhibition is in % at the dose shown (toxicity tests: loss of growth or viability). Lines come from different laboratories, so protocols vary.

SMILES	dose	result
O=C(NCCc1ccncc1)c1ccc(S(=O)(=O)Nc2ccc(N3CCOCC3)cc2)cc1	0.01 µg/mL	12%
COc1nc(Nc2ccc3[nH]ncc3c2)nc(NN2CCOCC2)n1	10 µg/mL	62%
O=C(Nc1ccc2cn[nH]c2c1)c1cc(NCCc2ccccn2)c(F)cc1F	10 µg/mL	59%
COc1nc(Nc2ccc3[nH]ncc3c2)nc(NC2CC2)n1	10 µg/mL	59%
NS(=O)(=O)c1ccc(CCNc2cc(C(=O)Nc3ccc4cn[nH]c4c3)c(F)cc2F)cc1	10 µg/mL	70%
COc1nc(Nc2ccc3[nH]ncc3c2)nc(NN2CCN(C)CC2)n1	0.1 µg/mL	0%
CSc1nc(Nc2ccc(N3CCOCC3)cc2)cc(N2CCN(CC(=O)N3CCC(N4CCOCC4)CC3)CC2)n1	1 µg/mL	69%
O=C(Nc1ccc2[nH]ncc2c1)c1cc(NCCCn2ccnc2)c(F)cc1F	10 µg/mL	68%
O=C(O)c1ccc(S(=O)(=O)Nc2ccc(N3CCOCC3)cc2)cc1	0.1 µg/mL	52%
O=C(Nc1ccc2cn[nH]c2c1)c1cc(NCCO)c(F)cc1F	1 µg/mL	42%
Cc1cnc(CNC(=O)c2ccc(S(=O)(=O)Nc3ccc(N4CCOCC4)cc3)cc2)cn1	10 µg/mL	97%
COc1nc(NCCc2ccccn2)nc(Nc2ccc3cn[nH]c3c2)n1	1 µg/mL	13%
O=C(Nc1ccc2[nH]ncc2c1)c1cc(NCCO)c(F)cc1F	10 µg/mL	23%
COc1nc(Nc2ccc3cn[nH]c3c2)nc(NN2CCOCC2)n1	10 µg/mL	60%
O=C(NCc1ccccn1)c1ccc(S(=O)(=O)Nc2ccc(N3CCOCC3)cc2)cc1	0.1 µg/mL	65%

For reference, 2 entries again:

| SMILES | dose | result |
|---|---|---|
| CSc1nc(Nc2ccc(N3CCOCC3)cc2)cc(N2CCN(CC(=O)N3CCC(N4CCOCC4)CC3)CC2)n1 | 1 µg/mL | 69% |
| O=C(Nc1ccc2cn[nH]c2c1)c1cc(NCCO)c(F)cc1F | 1 µg/mL | 42% |